Experimental findings from publication PMC4613828 (PLoS Pathogens, 2015) are described below.

Molecules are shown by their SMILES.

Assay in all cases: microbe, parasite or virus in culture
What all share (format): cell-based
What all share (conditions): Enterovirus C, BGM

The test system of test [1] is PV1 (poliovirus type 1 strain Sabin).
The subject of test [2] is PV2 (poliovirus type 2 strain Sabin).
In test [3] the test system is PV3 (poliovirus type 3 strain Sabin).

What is called EC50 is the concentration giving half of the maximal effect. A lower EC50 goes with a more potent agent. Regarding `CCON=Cc1ccc(OCCC(C)CCN2CCN(c3ccnc(N)c3)C2=O)cc1` (stereo not drawn) [NLD], the EC50 in test [1] was determined as 900 ± 400 nM; in test [2], 40 nM; in test [3], 95 ± 29 nM.
